Anti-infective test results gathered from many reports (values: NIAID ChemDB through PubChem).

Common to all: tests in culture; agent: HIV-1; read-out: fold resistance

Fold resistance: result on the changed form divided by that on wild type.

SMILES,strain,changes,cell line,read by,result
Cc1cn([C@H]2C[C@H](N=[N+]=[N-])[C@@H](CO)O2)c(=O)[nH]c1=O,3TC-resistant (RT M184V),RT-M184V,CEM + CEM-SS,XTT,0.4
O=c1[nH]cnc2c1ncn2[C@H]1CC[C@@H](CO)O1,RTMN(184) (RT M41L M184V T215Y),RT-M41L M184V T215Y,HT4 + HT4 LacZ-1,plaque count,3.89
Nc1ccn([C@H]2CC[C@@H](CO)O2)c(=O)n1,JF8(RT-D67N T69D),RT-D67N T69D,HELA-CD4+,plaque count,1.44
Cc1ccc(NC(=O)CSc2nnc(C)n2-c2c(C)ccc3ccccc23)c(Cl)c1,NL4-3,RT-K103N Y181C,HeLa + HeLa-JC53,luciferase,60
Cc1cn([C@H]2C=C[C@@H](CO)O2)c(=O)[nH]c1=O,HXB2,RT-A62V V75I F77L F116Y Q151M,MAGI (CCR5) + MAGI,β-galactosidase,8.4
Cc1cc(Cl)cc(S(=O)(=O)c2cccc(N)c2C#N)c1,,RT-Y181C,HeLa + HELA CD4+,β-galactosidase,1110
CC(C)Oc1ccc(Cc2ccccc2)cc1C(=O)CC(=O)C(=O)O,,INTG-N155S,,,10
Cc1ccc(NC(=O)CSc2nnc(C)n2-c2ccccc2Cl)c(Cl)c1,NL4-3,RT-K103N Y181C,HeLa + HeLa-JC53,luciferase,13
CCN(c1nc(F)ccc1NC(C)(C)C)C1CCN(C(=O)c2cc3cc(NC(=O)N4CCN(C)CC4)ccc3[nH]2)CC1,IIIB,L441P,MT-2,p24 / ELISA,1.2
O=C1O[C@H]2[C@@H]3OC(=O)c4cc(O)c(O)c(O)c4-c4c(cc(O)c(O)c4O)C(=O)OC[C@H]2O[C@@H](OC(=O)c2cc(O)c(O)c(O)c2)[C@@H]3OC(=O)c2cc(O)c(O)c3c2[C@@H]2C1=CC(=O)[C@](O)(O3)C2(O)O,NNRTI-resistant (RT Y188H) ARP1011,RT-Y188H,MAGI,,1.2
CCCN(C)C(=O)Oc1nsnc1-c1c(Cl)ccc(N)c1Cl,IIIB,RT-T240I,MAGI,MTT,10
C[C@H](Cn1cnc2c(N)ncnc21)OCP(=O)(O)O,JF4A ddC-resistant (RT T69D),RT-T69D,MT-2,p24,0.706
Cc1ccnc2c1NC(=O)c1cccnc1N2C1CC1,B8 (RT K101I K103N Y181C G190A),RT-K101I K103N Y181C G190A,H9,p24,>111
CC(C)(C)NC(=O)[C@@H]1C[C@@H]2CCCC[C@@H]2CN1C[C@@H](O)[C@H](Cc1ccccc1)NC(=O)[C@H](CC(N)=O)NC(=O)c1ccc2ccccc2n1,NL4-3,PR-L10R L63P V82T I84V,MT-4,p24,4
O=C(NCc1ccc(F)cc1)c1nc(N2CCCCS2(=O)=O)c2cccnc2c1O,,INTG-V151I,,,36
CCOP(=O)(COc1ccc(C[C@H](NC(=O)O[C@H]2CO[C@H]3OCC[C@H]32)[C@H](O)CN(CC(C)C)S(=O)(=O)c2ccc(OC)cc2)cc1)OCC,IIIB,L441P,MT-2,p24 / ELISA,1.5
COc1ccc2c(c1)N(C(=O)OC(C)C)[C@@H](CSC)C(=S)N2,B8 (RT K101I K103N Y181C G190A),RT-K101I K103N Y181C G190A,H9,p24,>1430
CC(C)CN(C[C@@H](O)[C@H](Cc1ccccc1)NC(=O)[C@H](CC(N)=O)NC(=O)c1ccc2ccccc2n1)C(=O)NC(C)(C)C,NL4-3,PR-L10R M46I V82T,MT-4,p24,0.5
Nc1ccn([C@H]2CC[C@@H](CO)O2)c(=O)n1,HXB2,RT-V75T,CD4+HELA + HeLa,plaque count,19.3
Cc1nnc(SCC(=O)Nc2ccc(S(N)(=O)=O)cc2Cl)n1-c1cc(Br)cc2cccnc12,NL4-3,RT-Y188L,HeLa + HeLa-JC53,luciferase,238
CC(C)=CCN1c2cc(Cl)cc3[nH]c(=S)n(c23)C[C@@H]1C,,RT-M41L T215Y K103N,MT-4,,8
C/C=C/CSc1cc(NC(=S)c2ccsc2C)ccc1Cl,NL4-3 (RT Y188C),RT-Y188C,CEM + CEM-SS,cytopathic effect / XTT,12
Nc1nc2c(ncn2[C@H]2CO[C@@H](CO)O2)c(=O)[nH]1,,RT-M41L D67N M184V L210W T215Y,,,~1.8
O=c1[nH]cnc2c1ncn2[C@H]1CC[C@@H](CO)O1,RTMC (RT-V 75A),RT-V75A,CD4+HELA + HeLa,plaque count,2
Cc1cc(S(N)(=O)=O)ccc1NC(=O)COc1ccc(Cl)cc1C(=O)c1cc(Cl)cc(C#N)c1,NNRTI-resistant (RT L100I),RT-L100I,MAGI,β-galactosidase,0.96
COc1cc(C(F)(F)F)cc(S(=O)(=O)c2cccc(N)c2C#N)c1,,RT-K103N V108I,HeLa + HELA CD4+,β-galactosidase,714
CC(C)CN(C[C@@H](O)[C@H](Cc1ccccc1)NC(=O)O[C@H]1CCOC1)S(=O)(=O)c1ccc(N)cc1,IIIB,D437N L441P,MT-2,p24 / ELISA,0.8
Cc1cc(Br)cc(S(=O)(=O)c2cccc(N)c2C#N)c1,,RT-K103N Y181C,HeLa + HELA CD4+,β-galactosidase,>4550
Cn1c2ccccc2c2c1cc(C#N)c(=O)n2-c1ccc([N+](=O)[O-])cc1,NRTI resistant,RT-M41L D67N T69N K70R T215F K219E,HeLa,luciferase,0.7
C/C=C/CSc1cc(NC(=S)c2ccsc2C)ccc1Cl,Dihydrocostatolide-resistant (RT-L100I),RT-L100I,CEM + CEM-SS,cytopathic effect / XTT,20
CCc1c(Sc2ccccn2)n(COCc2ccccc2)c(=O)[nH]c1=O,UC040-R (RT-Y181C),RT-Y181C,CEM + CEM-SS,cytopathic effect / XTT,110
Cc1ccnc2c1NC(=O)c1cccnc1N2C1CC1,Thiazolobenzimidazole-resistant (RT V108I),RT-V108I,CEM + CEM-SS,XTT,30
N#Cc1cc2[nH]c3ccccc3c2n(-c2ccc([N+](=O)[O-])cc2)c1=O,Recombinant,RT-M184V,HeLa,luciferase,3.5
Cc1ccc(NC(=O)CSc2nnc(C)n2-c2ccccc2)c(Br)c1,NL4-3,RT-Y188L,HeLa + HeLa-JC53,luciferase,>100
Cc1cc(O)cc(S(=O)(=O)c2cccc(N)c2C#N)c1,,RT-L100I K103N,HeLa + HELA CD4+,β-galactosidase,79.4
CC(C)=CCN1Cc2cc(Cl)cc3[nH]c(=S)n(c23)C[C@@H]1C,BCF07,RT-A98G V106I Y181C,PBMC,,>312.5
Cc1ccc(NC(=O)CSc2nnc(C)n2-c2cccc3ccccc23)c(Cl)c1,NL4-3,RT-Y188L,HeLa + HeLa-JC53,luciferase,147
O=c1[nH]cnc2c1ncn2[C@H]1CC[C@@H](CO)O1,BCF06,RT-A98G K103R,PBMC,,1.06
Cc1ccnc2c1NC(=O)c1cccnc1N2C1CC1,NL4-3 (RT Y188C),RT-Y188C,CEM + CEM-SS,cytopathic effect / XTT,160
Nc1ncnc2c1ncn2CCOCP(=O)(O)O,K65R,RT-K65R,,,10
C#C[C@@]1(CO)C=C[C@H](n2cc(C)c(=O)[nH]c2=O)O1,HXB2,RT-A62V V75I F77L F116Y Q151M,MAGI (CCR5) + MAGI,β-galactosidase,0.73
Nc1ccn([C@H]2CC[C@@H](CO)O2)c(=O)n1,HXB2,RT-Y181C M184V,HT4 + HT4 LacZ-1,plaque count,3.625
O=c1[nH]cnc2c1ncn2[C@H]1CC[C@@H](CO)O1,RT-65R 116Y 151M,RT-K65R F116Y Q151M,,,24
Cc1cn([C@H]2C[C@H](N=[N+]=[N-])[C@@H](CO)O2)c(=O)[nH]c1=O,BCF01,RT-A98G K103R Y181C,PBMC,,1
Cc1occc1C(=S)Nc1ccc(Cl)c(/C=N/OC(C)(C)C)c1,TIBO R82150-resistant (RT A98G V108I),RT-A98G V108I,CEM + CEM-SS,cytopathic effect / XTT,5.5
Cc1cn([C@H]2C[C@H](N=[N+]=[N-])[C@@H](CO)O2)c(=O)[nH]c1=O,NRTI resistant,RT-M41L D67N V118I M184V L210W T215Y,HeLa,luciferase,9.5
Nc1nc2c(ncn2[C@H]2CO[C@@H](CO)O2)c(=O)[nH]1,RT-106A 190A,RT-V106A G190A,,,0.25
CC(C)=CCN1Cc2cc(Cl)cc3[nH]c(=S)n(c23)C[C@@H]1C,HXB2,RT-M41L Y181C T215Y,HT4 + HT4 LacZ-1,plaque count,25.5
CC(C)(C)C(=O)c1sc(C(=O)NCc2ccccc2)c(O)c1O,,INTG-Q148K,,,1

Repeating the final 3 entries:

SMILES	strain	changes	cell line	read by	result
Nc1nc2c(ncn2[C@H]2CO[C@@H](CO)O2)c(=O)[nH]1	RT-106A 190A	RT-V106A G190A			0.25
CC(C)=CCN1Cc2cc(Cl)cc3[nH]c(=S)n(c23)C[C@@H]1C	HXB2	RT-M41L Y181C T215Y	HT4 + HT4 LacZ-1	plaque count	25.5
CC(C)(C)C(=O)c1sc(C(=O)NCc2ccccc2)c(O)c1O		INTG-Q148K			1

An empty or dashed field is not shown. Rows are shuffled and stem from different studies.